A mixed list of measured activities; the numbers were collected in NIAID ChemDB.

Common to all: growth or infection tests; agent: HIV-1

Blank or dashed fields: not listed here.

SMILES | setting | read-out | changes | method | strain | cell line | result
CCCCC/C(=N\NC(=O)c1ccccc1)c1cn(S(=O)(=O)c2ccccc2)c2ccccc12 | - | EC50 | - | syncytia / visual reading | IIIB | C8166 | 38.23 µg/mL
CCCCOP(=O)(N[C@@H](Cc1ccccc1)[C@H](O)CN(CC(C)C)S(=O)(=O)c1ccc(OC)cc1)OCCCC | - | EC50 | - | MTT | IIIB | MT-4 | >13.08 µg/mL
Nc1ncnc2c1ncn2[C@@H]1O[C@@H](CO)[C@H](OCP(=O)(O)O)[C@H]1O | - | EC50 | - | cytopathic effect / XTT | IIIB | MT-2 | >200 µM
CC(C)(C)NC(=O)[C@@H]1CCCN1C(=O)[C@@H](O)[C@H](Cc1ccccc1)NC(=O)[C@H](CC(N)=O)NC(=O)COc1cccc([N+](=O)[O-])c1 | - | EC50 | - | - | - | - | 6–10 µg/mL
O=S(=O)(O)c1ccc(-c2c3nc(c(-c4ccc(S(=O)(=O)O)cc4)c4ccc([n-]4)c(-c4ccc(S(=O)(=O)O)cc4)c4nc(c(-c5ccc(S(=O)(=O)O)cc5)c5ccc2[n-]5)C=C4)C=C3)cc1.[Gd+3] | - | EC50 | - | β-galactosidase | IIIB | MAGI | <50 µg/mL
O=C(NCCc1ccccn1)c1ccc(C2=NN3C(C(=O)c4ccc(F)cc4)Oc4ccccc4C3C2)cc1 | - | EC50 | - | GFP / reporter gene | LAI | MT-4 | 1–10 µM
CCn1cc(C(=O)O)c(=O)c2cc(F)c(N3CCN(c4ccccc4OC)CC3)c(OC(F)F)c21 | - | EC50 | - | cytopathic effect | - | MOLT-4 | 0.061 µM
Cc1ccc(S(=O)(=O)n2cc(/C=N/NC(=O)c3ccccc3)c3cc(C#N)ccc32)cc1 | - | EC50 | - | syncytia / visual reading | IIIB | C8166 | 3.13 µg/mL
CCOP(=O)(OCC)C(N[C@@H](Cc1ccccc1)[C@@H](O)CN(CC(C)C)S(=O)(=O)c1ccc(OC)cc1)c1ccccn1 | - | EC50 | - | MTT | IIIB | MT-4 | >13.93 µg/mL
O=S(=O)(O)c1c2ccccc2c(-c2c3nc(c(-c4c5ccccc5c(S(=O)(=O)O)c5ccccc45)c4ccc([nH]4)c(-c4c5ccccc5c(S(=O)(=O)O)c5ccccc45)c4nc(c(-c5c6ccccc6c(S(=O)(=O)O)c6ccccc56)c5ccc2[nH]5)C=C4)C=C3)c2ccccc12 | - | EC50 | - | - | 89.6 | - | <50 µg/mL
O=C(NC1CCCC1)c1ccc(C2=NN3C(C(=O)c4ccc(Br)cc4)Oc4ccccc4C3C2)cc1 | - | EC50 | - | GFP / reporter gene | LAI | MT-4 | <1 µM
C[C@H]1/C=C/[C@@]2(C)CC[C@@H](C(C)(C)O)[C@@H]2[C@@H](O)C[C@](C)(O)/C=C/C1 | - | EC50 | - | cytopathic effect / MTT | - | MT-2 | 6.16 µM
CC1(C)NC(=O)n2c1nc(C(=O)NCc1ccc(F)cc1)c(O)c2=O | - | EC95 | - | p24 | - | MT-4 | <50 µM
CC(C)(C)NC(=O)[C@@H]1CCCN1C(=O)[C@@H](O)[C@H](Cc1ccccc1)NC(=O)[C@H](CC(N)=O)NC(=O)COc1ccccc1 | - | EC50 | - | - | - | - | 4.5–6 µg/mL
Cc1c(OCC2CCC2)c2cc(F)ccc2[nH]c1=O | - | EC50 | RT-V106A Y181C | β-galactosidase | NNRTI-resistant (RT V106A Y181C) | HeLa + HeLa-MAGI | >2 µM
Cc1ccc2c(/C=N/NC(=O)c3ccccc3)cn(S(=O)(=O)c3cccc([N+](=O)[O-])c3)c2c1 | - | EC50 | - | syncytia / visual reading | IIIB | C8166 | 1.02 µg/mL
CN(C)C(=O)C(=O)N(C)C1CN(CCc2ccccc2)CCn2c1nc(C(=O)NCc1ccc(F)cc1)c(O)c2=O | - | EC50 | - | p24 | - | MT-4 | <1 µM
CC(C)[C@H](NC(=O)OCc1ccccn1)C(=O)N[C@@H](Cc1ccccc1)[C@@H](O)C[C@H](Cc1ccccc1)NC(=O)OCc1cccnc1 | - | EC95 | PR-L10R M46I L63P 184V | p24 | NL4-3 | MT-4 | 1.5 µM
CN1c2c(-c3ccccc3)nn(CC(=O)N/N=C/c3ccc(O)cc3O)c2-c2ccccc2S1(=O)=O | - | EC90 | - | RT activity | LAV-1 | PBMC | 5.9 µM
COC(=O)C(=O)N1CCC[C@H]1C(=O)N[C@H](Cc1ccccc1)C(=O)N[C@@H](CC(N)=O)C(=O)N[C@@H](Cc1ccccc1)[C@H](O)C(=O)N1CCC[C@H]1C(=O)NC(C)(C)C | - | EC50 | - | - | - | - | >100 µg/mL
CCCCC/C(=N\NC(=O)c1ccccc1)c1cn(S(=O)(=O)c2ccc(C)cc2)c2ccccc12 | - | EC50 | - | syncytia / visual reading | IIIB | C8166 | 52.23 µg/mL
CC(=O)O[C@H]1CC[C@@H](O)CC[C@@H](C)/C=C/[C@@]2(C)CC[C@@H](C(C)(C)OC(C)=O)[C@H]12 | - | EC50 | - | cytopathic effect / MTT | - | MT-2 | 2.9 µM
CC/C(=N\NC(=O)c1ccccc1)c1cn(S(=O)(=O)c2ccccc2)c2ccccc12 | - | EC50 | - | syncytia / visual reading | IIIB | C8166 | 14.53 µg/mL
C/C(Cl)=C/COc1cc(NC(=S)c2ccoc2C)ccc1Cl | - | EC50 | RT-L100I | syncytia | TIBO R82150-resistant (RT L100I) | CEM | 0.04 µg/mL
C[C@@H]1CCO[C@H]2Cn3cc(C(=O)NCc4ccc(F)cc4F)c(=O)c(O)c3C(=O)N12 | - | EC50 | L74I/V75I | luciferase / luminescence | - | TZM-bl | 0.0016 µM
COC(=O)CNc1c(C(=O)NCc2ccc(F)cc2F)c(=O)n(O)c2ncccc12 | pseudotyped | EC50 | N155H | luciferase | - | HOS | 0.19 µM
CC(C)(CNC(=O)C(C)(C)C)NC(=O)[C@@H]1CCCN1C(=O)[C@@H](O)[C@H](Cc1ccccc1)NC(=O)[C@H](CC(N)=O)NC(=O)OCc1ccccc1 | - | EC50 | - | antigen | - | MT-4 | >100 µg/mL
CN(C)C(=O)C(=O)N(C)C1CN(Cc2ccccc2)CCn2c1nc(C(=O)NCc1ccc(F)cc1)c(O)c2=O | - | EC95 | - | p24 | - | MT-4 | <1 µM
COc1ccc([C@H]2CC23N=C(c2ccccc2)OC3=O)cc1OC(C)=O | - | EC50 | - | MTT | IIIB | MT-4/C8166 + MT-4 | 26.3 µg/mL
CN(C)CCCNC(=O)c1ccc(C2=NN3C(C(=O)c4ccc(Br)cc4)Oc4ccccc4C3C2)cc1 | - | EC50 | - | GFP / reporter gene | LAI | MT-4 | 1–10 µM
CCOP(=O)(N[C@@H](Cc1ccccc1)[C@H](O)CN(CC(C)C)S(=O)(=O)c1ccc(OC)cc1)OCC | - | EC50 | - | MTT | IIIB | MT-4 | >7.77 µg/mL
COC(=O)C(=O)N1CCC[C@H]1C(=O)N[C@@H](Cc1ccccc1)C(=O)Nc1ccccc1OCC(=O)N[C@@H](CC(N)=O)C(=O)N[C@@H](Cc1ccccc1)[C@H](O)C(=O)N1CCC[C@H]1C(=O)NC(C)(C)C | - | EC50 | - | - | - | - | 60 µg/mL
CC(=O)N1CCc2nc(C(=O)NCc3ccc(F)cc3)c(O)c(=O)n2CC1 | - | EC95 | - | p24 | - | MT-4 | <50 µM
CN1c2c(-c3ccccc3)nn(CC(=O)N/N=C/c3cccc(Cl)c3)c2-c2ccccc2S1(=O)=O | - | EC90 | - | RT activity | LAV-1 | PBMC | >100 µM
N#C[C@]1(CO)O[C@@H](n2cnc3c(=O)[nH]cnc32)C[C@@H]1O | - | EC50 | - | β-galactosidase | HXB2 | MAGI | 0.242 µM
CC1=C(C(=O)Nc2ccc(Cl)c(OCC=C(Cl)Cl)c2)SCCO1 | - | EC50 | RT-L100I | syncytia | TIBO R82150-resistant (RT L100I) | CEM | 2 µg/mL
CN1N=C(N)c2cn([C@@H]3O[C@H](COP(=O)(O)O)[C@@H](O)[C@H]3O)c3ncnc1c23 | - | EC50 | - | RT activity | IIIB | - | 0.02 µM
CCN(CC)c1ccc(/C=N/NC(=O)Cn2nc(-c3ccccc3)c3c2-c2ccccc2S(=O)(=O)N3C)cc1 | - | EC90 | - | RT activity | LAV-1 | PBMC | >100 µM
Cn1cnc(CN2CCn3c(nc(C(=O)NCc4ccc(F)cc4)c(O)c3=O)C2(C)C)n1 | - | EC95 | - | p24 | - | MT-4 | <1 µM
COc1ccc(NC(=S)C2=C(C)OCCS2)cc1OCC=C(Cl)Cl | - | EC50 | RT-L100I | syncytia | TIBO R82150-resistant (RT L100I) | CEM | 1.8 µg/mL
O=C(c1ccc(F)cc1)C1Oc2ccccc2C2CC(c3ccc(C(=O)N4CCN(Cc5ccccc5)CC4)cc3)=NN12 | - | EC50 | - | GFP / reporter gene | LAI | MT-4 | >10 µM
CCOP(=O)(OCC)C(N[C@@H](Cc1ccccc1)[C@@H](O)CN(CC(C)C)S(=O)(=O)c1ccc(OC)cc1)c1ccc([N+](=O)[O-])cc1 | - | EC50 | - | MTT | ROD | MT-4 | >3.94 µg/mL
O=C(NC1CCCCC1)c1ccc(C2=NN3C(C(=O)c4ccc(F)cc4)Oc4ccccc4C3C2)cc1 | - | EC50 | - | GFP / reporter gene | LAI | MT-4 | 1–10 µM
CN1c2c(-c3ccccc3)nn(CC(=O)N/N=C/c3ccccc3[N+](=O)[O-])c2-c2ccccc2S1(=O)=O | - | EC50 | - | RT activity | LAV-1 | PBMC | >100 µM
CC(=O)N1CCn2c(nc(C(=O)NCc3ccc(F)cc3)c(O)c2=O)C1CO | - | EC95 | - | p24 | - | MT-4 | <50 µM
CC(COc1cc(NC(=S)OC(C)C)ccc1Cl)=NO | - | EC50 | - | syncytia | IIIB | CEM | 0.097 µM
Nc1ncnc2c1ncn2[C@@H]1C[C@H](OCP(=O)(O)O)CO1 | - | EC50 | - | cytopathic effect / XTT | IIIB | MT-2 | >200 µM
COc1ccc(NC(=S)c2ccoc2C)cc1OCC=C(Cl)Cl | - | EC50 | RT-Y188H | syncytia | HEPT-resistant (RT Y188H) | CEM | 10 µg/mL
N#C[C@]1(CO)O[C@@H](n2cnc3c(N)ncnc32)C[C@@H]1O | - | EC50 | RT-M184V | β-galactosidase | 3TC-resistant (RT M184V) | MAGI | 2.28 µM
COc1ccccc1CNC(=O)c1ccc(C2=NN3C(C(=O)c4ccc(F)cc4)Oc4ccccc4C3C2)cc1 | - | EC50 | - | GFP / reporter gene | LAI | MT-4 | >10 µM
CCOP(=O)(OCC)C(N[C@@H](Cc1ccccc1)[C@@H](O)CN(CC(C)C)S(=O)(=O)c1ccc(OC)cc1)c1ccc(C)cc1 | - | EC50 | - | MTT | IIIB | MT-4 | >4.94 µg/mL
COc1cc(/C=N/NC(=O)Cn2nc(-c3ccccc3)c3c2-c2ccccc2S(=O)(=O)N3C)cc(OC)c1OC | - | EC50 | - | RT activity | LAV-1 | PBMC | >100 µM
CC(C)(C)NC(=O)[C@@H]1CCCN1C(=O)[C@@H](O)[C@H](Cc1ccccc1)NC(=O)[C@H](CC(N)=O)NC(=O)OCc1ccccc1 | - | EC50 | - | - | - | - | <1 µg/mL
COc1ccc(/C=N/NC(=O)Cn2nc(-c3ccccc3)c3c2-c2ccccc2S(=O)(=O)N3C)c(OC)c1OC | - | EC50 | - | RT activity | LAV-1 | PBMC | >100 µM
CC(C)(C)NC(=O)[C@@H]1CCCN1C(=O)[C@@H](O)[C@H](Cc1ccccc1)NC(=O)[C@H](CC(N)=O)NC(=O)COc1ccccc1[N+](=O)[O-] | - | EC50 | - | - | - | - | 6 µg/mL

Repeating the final 3 entries:

{"SMILES": "CC(C)(C)NC(=O)[C@@H]1CCCN1C(=O)[C@@H](O)[C@H](Cc1ccccc1)NC(=O)[C@H](CC(N)=O)NC(=O)OCc1ccccc1", "read-out": "EC50", "result": "<1 µg/mL"}
{"SMILES": "COc1ccc(/C=N/NC(=O)Cn2nc(-c3ccccc3)c3c2-c2ccccc2S(=O)(=O)N3C)c(OC)c1OC", "read-out": "EC50", "method": "RT activity", "strain": "LAV-1", "cell line": "PBMC", "result": ">100 µM"}
{"SMILES": "CC(C)(C)NC(=O)[C@@H]1CCCN1C(=O)[C@@H](O)[C@H](Cc1ccccc1)NC(=O)[C@H](CC(N)=O)NC(=O)COc1ccccc1[N+](=O)[O-]", "read-out": "EC50", "result": "6 µg/mL"}

Lines come from different laboratories, so protocols vary. Two numbers with a dash give a range or band. ECn: concentration that inhibits the pathogen or its effect by n%.